Source: ChEMBL document CHEMBL3988442, “University of Dundee, Small-Polar-MMV Screening Library” (2021).

A: 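Phenotypic screen: M. tuberculosis growth, cholesterol and DPPC medium, 4 days; the read-out is not stated. Tested at 500 µM. The record gives no direction; compounds that gave an IC50 in retests scored well above the rest, so higher reads as more growth inhibition. Size under these conditions: about 18,000 compounds, about 900 of them at 50% or above in at least one test.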
B: 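Whole-cell growth test on Mycobacterium tuberculosis, read after 3 days in glucose-containing 7H9 medium; the read-out is not stated. Compounds at 500 µM. Higher reads as more growth inhibition (inferred: compounds with an IC50 in retests scored well above the rest). Of about 18,000 compounds tested this way, about 1,400 (7.9%) reached 50% or more in at least one test.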

Values are the deposited “Percent Effect”, in %.
The controls that fix the scale are not given in the record; negative values are as filed.
This is part of a subset picked to be rich in strong results.

* CCNC(=O)c1ccc(OCCOCC)cc1 | B: 37.56%
* CC[C@@H](O)CN1CCC(OC2CCOC2)CC1 (stereo not given in full) | B: -4.255%
* NC(=O)CCc1ccc(S(=O)(=O)N2CCCCC2)cc1 | A: 6.484%
* CC[C@@H](O)CN1CCN(C(C)COC)CC1 (stereo not given in full) | B: 8.952%
* CCOC(=O)C(CN)CC(C)C (stereo not given) | B: 9.033%
* CCn1c(=O)c2ccccc2n(CC)c1=O | A: -4.725%
* N[C@@H]1C[C@H]1C(F)(F)F | A: 3.097%
* NCCN1CCN(c2ncccn2)CC1 | B: 12.85%
* Nc1nccnc1C(=O)NCc1cc(Br)cs1 | A: 52.77%; B: 89.32%
* CC(CNC(=O)c1cccc(F)c1)N1CCN(C)CC1 (stereo not given) | A: 13.02%
* Cc1ccsc1CN1CC(O)(CC#N)C1 | B: -3.01%
* CC(C)C1CCCCN1C(=O)CCS(C)(=O)=O (stereo not given) | B: 40.74%
* Cc1cc(NC(=O)CNC(C)c2ccncc2)n(C)n1 (stereo not given) | B: -5.212%
* CNC(C)c1ccncc1 (stereo not given) | B: 21.92%
* CC(C)N1CCN(c2ccc3nnnn3n2)CC1 | B: 3.152%
* O=C(CC1COCCN1)NCc1ccc2c(c1)OCO2 (stereo not given) | B: 22.48%
* COc1cn(C)c(C(=O)Nc2cccnc2)cc1=O | B: 7.806%
* Cc1cc(C)cc(NC(=O)CCNS(C)(=O)=O)c1 | B: 5.815%
* COc1ccc(CN2CCC(NC(C)=O)CC2)cc1F | A: 3.924%
* CCN1CCCC1CNC(=O)C(C)(C)C (stereo not given) | B: -4.794%
* COc1nc(N)cc(=O)[nH]1 | B: -16.9%
* COc1ccc(OCC(O)CN2CCN(C)CC2)cc1 (stereo not given) | A: 4.288%
* COc1cccc2c1OCCC2N (stereo not given) | B: 5.665%
* CN(C)C(=O)N1CCN(C(=O)CN)CC1 | B: -0.8953%
* Cc1nn(CCCN)c(C)c1Br | A: 22.35%; B: 65.86%
* COc1ccc(C(CN)N2CCOCC2)cc1OC (stereo not given) | B: 0.5865%
* COC(=O)c1cn(C)nc1C | A: -13.02%
* CC(C)OCCC(=O)N1CCC(O)(C(F)(F)F)CC1 | A: 35.77%
* CCn1cnnc1CC1CCNC1 (stereo not given) | B: -7.128%
* CC(C)(NCCCO)c1nccs1 | A: 5.802%
* Cc1ccsc1C(C)NCCS(=O)(=O)N1CCOCC1 (stereo not given) | B: 38.69%
* Cc1cc(N2CC(C)OC(C)(C)C2)n2ncnc2n1 (stereo not given) | A: 1.45%
* OCCCc1cccc(NCc2csnn2)c1 | B: 34.38%
* CCOc1cccc(CSC(C)CO)n1 (stereo not given) | A: 36.48%; B: 39.29%
* CCC(N)C(=O)Nc1ccc2c(c1)CCC2 (stereo not given) | A: 60.26%; B: 71.83%
* Cn1cc(Br)c(=O)c(NC(=O)c2ccoc2)c1 | B: -6.276%
* O=C(CCN1CCC[C@H]1CO)Nc1ccccc1Cl | A: -10.92%; B: -9.023%
* CC(=O)NC(Cc1ccc(O)cc1)C(C)=O (stereo not given) | B: 8.023%
* CN1CCC(N(C)CC(O)COc2ccccc2)CC1 (stereo not given) | A: -6.467%; B: 15.7%
* Cn1cnc(S(=O)(=O)N(CC(N)=O)C2CCCC2)c1Cl | B: -12.12%
* Cc1ccc(CNC(=O)C2CCCCC(=O)N2)o1 (stereo not given) | B: 14.27%

The last 4 entries again:

{"compound": "CC(=O)NC(Cc1ccc(O)cc1)C(C)=O", "stereo": "stereo not given", "B": 8.023}
{"compound": "CN1CCC(N(C)CC(O)COc2ccccc2)CC1", "stereo": "stereo not given", "A": -6.467, "B": 15.7}
{"compound": "Cn1cnc(S(=O)(=O)N(CC(N)=O)C2CCCC2)c1Cl", "B": -12.12}
{"compound": "Cc1ccc(CNC(=O)C2CCCCC(=O)N2)o1", "stereo": "stereo not given", "B": 14.27}